In test [1] the target is GrlR from EHEC (strain EDL933), wild type, His-tagged (enterohemorrhagic Escherichia coli (EHEC) EDL933). As to the kind of experiment: SEC + other: dynamic light scattering.
Test [2] has the same target. The test is described as follows: AUC.

The values below come from publication PMC1868957, “Structure of GrlR and the Implication of Its EDED Motif in Mediating the Regulation of Type III Secretion System in EHEC” (2007).

Take “GrlR from EHEC (strain EDL933), wild type, His-tagged (natural protein)”: the stoichiometry N in test [1] and in test [2] was 2 throughout.
